Results of unrelated studies side by side (data: NIAID ChemDB).

Common to all: whole-cell or culture tests; agent: Mycobacterium bovis BCG

A number after MIC or MFC names an inhibition level or a share of isolates. Conditions beyond the fields shown may differ between rows. Blank or dashed fields: not listed here.

compound	endpoint	read by	conditions	strain	value
CC(C(=O)O)c1ccc2[nH]c3ccc(Cl)cc3c2c1	MIC99	resazurin / visual reading / absorbance			125 µg/mL
C#CCCOC(C)=O	MIC	resazurin	48 h	1173P2	125 µg/mL
Fc1cccc(Cn2cc(/C=N/Nc3nncs3)c3ccccc32)c1	MIC100	broth dilution	48 h	1173P2	500 µg/mL
CC(=O)[C@]1(O)Cc2c(O)c3c(c(O)c2[C@@H](O[C@H]2C[C@H](N)[C@H](O)[C@H](C)O2)C1)C(=O)c1ccccc1C3=O	MIC			Pasteur	6.25 µM
C#CCCO	MIC	resazurin	24 h	1173P2	125 µg/mL
CCCCn1cc(/C=N/NC(=S)NN)c2ccccc21	MIC100	broth dilution	48 h	1173P2	>500 µg/mL
COC(=O)Cc1ccc2[nH]c3ccc(Cl)cc3c2c1	MIC99	resazurin / visual reading / absorbance			31.3 µg/mL
C(=N\Nc1nncs1)/c1cn(Cc2ccccc2)c2ccccc12	MIC100	broth dilution	48 h	1173P2	250 µg/mL
COC(=O)C(C)c1ccc2c(c1)[nH]c1ccc(Cl)cc12	MIC99	resazurin / visual reading / absorbance			31.3 µg/mL
C#CCOC(C)=O	MIC	resazurin	48 h	1173P2	125 µg/mL
CO[C@H]1[C@@H](O)[C@@H](C)O[C@H](O[C@H]2[C@H](Oc3cccc4c(O)c5c(=O)oc6ccc(C)c7c(=O)oc(c34)c5c67)O[C@H](C)[C@H](O)[C@@H]2O)[C@@H]1O	MIC			Pasteur	1.56 µM
NNC(=S)N/N=C/c1cn(Cc2ccc(F)cc2)c2ccccc12	MIC100	broth dilution	48 h	1173P2	>500 µg/mL
C=C(NC(=O)C(=C)NC(=O)c1csc(C2=NC3CC4(C2)NC(=O)C(C)NC(=O)C(=C)NC(=O)C(=C)NC(=O)C(C(C)C)NC2C=Cc5c(C(C)O)cc(nc5C2O)C(=O)OC(C)C(NC(=O)c2csc(n2)C(C(C)(O)C(C)O)NC(=O)C2CSC(=N2)/C(=C\C)NC(=O)C(C(C)O)NC(=O)c2csc4n2)c2nc3cs2)n1)C(N)=O	MIC			Pasteur	6.25 µM
COC(=O)Cc1ccc2[nH]c3ccc(C(F)(F)F)cc3c2c1	MIC99	resazurin / visual reading / absorbance			7.8 µg/mL
CC(C)CC(=O)OC(=O)CC(C)C	MIC	resazurin	48 h	1173P2	250 µg/mL
NNC(=S)N/N=C/c1cn(CC2CCC2)c2ccccc12	MIC100	broth dilution	24 h	1173P2	>500 µg/mL
CC(C(=O)O)c1ccc2c(c1)[nH]c1ccc(N3CCOCC3)cc12	MIC99	resazurin / visual reading / absorbance			>250 µg/mL
Nc1nc(Cl)nc2c1ncn2[C@@H]1O[C@H](CO)[C@@H](O)[C@H]1O	MIC			Pasteur	12.5 µM
Brc1ccc(Cn2cc(/C=N/Nc3nncs3)c3ccccc32)cc1	MIC100	broth dilution	48 h	1173P2	3.91 µg/mL
CC(=O)O[C@@H]1CC(=O)O[C@H](C)C[C@@H]2O[C@@H]2/C=C/C(=O)[C@H](C)C[C@H](CC=O)[C@H](OC2OC(C)C(OC3CC(C)(O)C(OC(=O)CC(C)C)C(C)O3)C(N(C)C)C2O)[C@H]1O	MIC			Pasteur	12.5 µM
CCCCCn1cc(/C=N/NC(=S)NN)c2ccccc21	MIC100	broth dilution	48 h	1173P2	>500 µg/mL

Repeating the first 2 entries:

compound,endpoint,read by,conditions,strain,value
CC(C(=O)O)c1ccc2[nH]c3ccc(Cl)cc3c2c1,MIC99,resazurin / visual reading / absorbance,,,125 µg/mL
C#CCCOC(C)=O,MIC,resazurin,48 h,1173P2,125 µg/mL